Measurements taken from patent US20250092029A1 (THE WISTAR INSTITUTE OF ANATOMY AND BIOLOGY, priority 2022, published 2025).

Tested on: SARS-CoV-2 (USA-WA1/2020 variant)
Assay: Virus CPE assay in Vero-E6 cells, USA-WA1/2020
Conditions: read-out: EC50, inhibition of CPE; USA-WA1/2020, Vero-E6, 4 days

O=C(CN1C(=O)[C@@H](NC(=O)c2cc3ccccc3cn2)COc2ccccc21)N[C@@H](C[C@@H]1CCNC1=O)C(=O)COC(=O)c1c(Cl)cccc1Cl
EC50: 16.3 µM
